Where two headings read alike, the source gives them in different places.
Tested on: SARS-CoV-2 Wuhan-Hu-1 D614G, Caco-2 cells
Conditions: for SARS-CoV-2 infection, Mean (0 nM = 100): Fig. 6b, D614G isolate; for IC50: read-out: IC50 SARS-CoV-2 Wuhan-Hu-1 D614G, Caco-2 cells
[1] = in-cell ELISA 2 days post infection

Row | Compound | SARS-CoV-2 infection, Mean (0 nM = 100) (compound 32 nM) | SARS-CoV-2 infection, Mean (0 nM = 100) (compound 160 nM) | SARS-CoV-2 infection, Mean (0 nM = 100) (compound 800 nM) | SARS-CoV-2 infection, Mean (0 nM = 100) (compound 4000 nM) | SARS-CoV-2 infection, Mean (0 nM = 100) (compound 20000 nM) | SARS-CoV-2 infection, Mean (0 nM = 100) (compound 100000 nM) | IC50 (2 days post infection) [µM] | IC50 [1] [µM]
1 | CC(=O)N[C@@H](CC(N)=O)C(=O)N1CCC[C@H]1C(=O)NC(CCCNC(=N)N)C(=O)c1nc2ccccc2s1 (stereo partly shown) | 88.8992 | 90.2993 | 89.0817 | 98.5858 | 11.6994 | 0.2339 | 11.9 | 11.9
2 | CC(=O)N[C@@H](Cc1c[nH]cn1)C(=O)N1CCC[C@H]1C(=O)NC(CCCNC(=N)N)C(=O)c1nc2ccccc2s1 (stereo partly shown) | 95.0117 | 95.6018 | 92.7997 | 99.0112 | 29.611 | 0.596 |  | 15.4
3 | CC(=O)N[C@H](CCCNC(=N)N)C(=O)N[C@@H](CC1CCC1)C(=O)NC(CCCNC(=N)N)C(=O)c1nc2ccccc2s1 (stereo partly shown) | 91.0762 | 89.0772 | 89.0473 | 86.8294 | 98.4444 | 4.981 |  | 51.2

— publication PMC9270327 (Communications Biology, 2022)
